One compound from US10561143B2, “Fungicidal composition having synergistic effect” (JIANGSU HUIFENG AGROCHEMICAL CO., LTD., priority 2013, dated 2020) can be followed below.

In the assay the test system is rust pathogens of wheat. The conditions noted are these: Table 20; standard benziothiazolinone.

For `O=c1[nH]sc2ccccc12` [Benziothiazolinone], the “ATI (actual toxicity index)” value turned out to be 100.
